From PMC6504579 (Journal of immunology (Baltimore, Md. : 1950), 2019)

Type: in vitro ADME, human
Settings: HLA-B57+ CD4 T cell extracts, one representative experiment

Structure (SMILES): CC[C@H](C)[C@H](NC(=O)[C@@H](NC(=O)[C@H](CCC(=O)O)NC(=O)[C@@H]1CCCN1C(=O)[C@H](CO)NC(=O)[C@H](Cc1ccccc1)NC(=O)[C@H](C)NC(=O)[C@H](CCCCN)NC(=O)[C@H](CCC(=O)O)NC(=O)[C@H](CCC(=O)O)NC(=O)[C@@H](NC(=O)[C@@H](NC(=O)[C@@H](N)CCCCN)C(C)C)C(C)C)C(C)C)C(=O)N1CCC[C@H]1C(=O)N[C@@H](CCSC)C(=O)N[C@@H](Cc1ccccc1)C(=O)N[C@@H](CO)C(=O)N[C@@H](C)C(=O)N[C@@H](CC(C)C)C(=O)O [5-KF11–3]
- KF11 peptides yielded, activated over resting extracts: 2.8 fold
